Data published in patent publication US20050048563A1, “Membrane molecule indicator compositions and methods” (Novasite Pharmaceuticals, Inc, priority 2000, published 2005).

System: PLC
Settings: 5 μM PAO pretreatment for 10 minutes, BK 1 μM

O=[As]c1ccccc1 (stereo not shown)
BK-induced translocation of PLCδ1PH-GFP to the cytosol in PAO-treated cells: sustained translocation
